# Experimental data taken from US20110190265A1, “METHODS AND COMPOSITIONS FOR TREATING BACTERIAL INFECTIONS BY INHIBITING QUORUM SENSING” (priority 2008, published 2011).
# System: V. cholerae N16961
# Settings: inhibitor concentrations to 1 μM
row,SMILES,Effect on growth (OD600) of V. cholerae N16961
1,"CCCCSCC1CN(Cc2c[nH]c3c(N)ncnc23)CC1O (stereo not drawn) [BuT-DADMe-ImmA, 5′-butylthio-(BuT-)DADMe-ImmucillinA]",nontoxicity
2,"CCSCC1CN(Cc2c[nH]c3c(N)ncnc23)CC1O (stereo not drawn) [EtT-DADMe-ImmA, 5′-ethylthio-(EtT-) DADMe-ImmucillinA]",nontoxicity
3,"CSCC1CN(Cc2c[nH]c3c(N)ncnc23)CC1O (stereo not drawn) [MT-DADMe-ImmA, 5′-methylthio-(MT-) DADMe-ImmucillinA]",nontoxicity
